Measurements reported in PubChem BioAssay AID504761 (Drosophila RNAi Screening Center, 2011)
The screen tested about 22,000 reagents; shown is a random part of those with a known target gene and a result. Over the whole deposit, 116 (0.52%) were called active. 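Calls depend on retest data that are not deposited; infection was ranked per plate without normalising between plates; the unit of the infection score is not given.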 The raw values are shown without normalisation. Unmarked entries are inactive. No sequences are given here. Not stated in the record: the amount of reagent, the time to read-out.

Purpose: 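Fly genes whose silencing reduces dengue virus type 2 infection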 (primary screen)
Cells: D.Mel-2 cells from Drosophila
Knock-down reagent: long dsRNA against Drosophila genes
Challenge: infection with dengue virus type 2; dose and infection time not stated
Detection: 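Cells stained for dengue envelope protein and imaged; percent of infected cells per well on duplicate plates, ranked by infection, with stained nuclei counted for cell number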
Scale: infection score: higher = more virus-infected cells; cell count: higher = more cells in the well
Call rule: 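Low infection ranks in the two replicates (chance level up to 0.065) followed by a retest with a 1.5-fold or larger significant decrease, p below 0.05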
Calls: active = confirmed: knock-down lowers infection; inactive = not picked or not confirmed

mib2 [DRSC02623] gave infection score, replicate 1 = 10.6; infection score, replicate 2 = 7.65; cell count, replicate 1 = 6368; cell count, replicate 2 = 5924.
After knock-down of par-6 [DRSC20359] the results were infection score, replicate 1 = 5.16; infection score, replicate 2 = 12; cell count, replicate 1 = 6452; cell count, replicate 2 = 6190.
par-6 [DRSC29863] scored infection score, replicate 1 = 6.03; infection score, replicate 2 = 4.92; cell count, replicate 1 = 2968; cell count, replicate 2 = 6751.
With knock-down of RpS9 [DRSC11273], the record shows infection score, replicate 1 = 11.5; infection score, replicate 2 = 9.62; cell count, replicate 1 = 4275; cell count, replicate 2 = 4274.
Knock-down of Rpt1 [DRSC07542] gave: infection score, replicate 1 = 8.89; infection score, replicate 2 = 3.06; cell count, replicate 1 = 967; cell count, replicate 2 = 555.
Ntf-2 [DRSC20552] showed infection score, replicate 1 = 1.08 (active); infection score, replicate 2 = 0.88; cell count, replicate 1 = 6188; cell count, replicate 2 = 6250.
Ntf-2 [DRSC25597] scored infection score, replicate 1 = 0.68; infection score, replicate 2 = 3.13; cell count, replicate 1 = 5995; cell count, replicate 2 = 6190.
CG17570 [DRSC01770] gave infection score, replicate 1 = 1.39; infection score, replicate 2 = 0.7; cell count, replicate 1 = 6190; cell count, replicate 2 = 6281.
Silencing of CG17570 [DRSC03754] resulted in: infection score, replicate 1 = 6.86; infection score, replicate 2 = 6.6; cell count, replicate 1 = 6327; cell count, replicate 2 = 6376.
After knock-down of CG14673 (retired record) [DRSC12259], the record shows infection score, replicate 1 = 8.48; infection score, replicate 2 = 6.47; cell count, replicate 1 = 5922; cell count, replicate 2 = 6132.
After knock-down of CG5002 [DRSC06911], the screen gave infection score, replicate 1 = 14.4; infection score, replicate 2 = 11.1; cell count, replicate 1 = 5105; cell count, replicate 2 = 5304.
Depletion of NT1 [DRSC08530] came out at: infection score, replicate 1 = 2.58; infection score, replicate 2 = 1.35; cell count, replicate 1 = 6058; cell count, replicate 2 = 6021.
NT1 [DRSC22895] showed infection score, replicate 1 = 0.69; cell count, replicate 1 = 5509; cell count, replicate 2 = 357.
For CG15262 [DRSC01975], the entry reads infection score, replicate 1 = 0.57 (active); infection score, replicate 2 = 0.76; cell count, replicate 1 = 6350; cell count, replicate 2 = 7066.
For tyf [DRSC18382] the deposit lists infection score, replicate 1 = 1.9; infection score, replicate 2 = 4.1; cell count, replicate 1 = 6267; cell count, replicate 2 = 903.
tyf [DRSC26245] scored infection score, replicate 1 = 13.5; infection score, replicate 2 = 14.2; cell count, replicate 1 = 5143; cell count, replicate 2 = 5059.
Against PlexB [DRSC17177], the values are infection score, replicate 2 = 6.63; cell count, replicate 1 = 288; cell count, replicate 2 = 1417.
Lnpk [DRSC07254] showed infection score, replicate 1 = 4.3; infection score, replicate 2 = 8.56; cell count, replicate 1 = 6469; cell count, replicate 2 = 6355.
After knock-down of Lnpk [DRSC29127], the screen gave infection score, replicate 2 = 1.51; cell count, replicate 1 = 415; cell count, replicate 2 = 398.
Against CG12470 [DRSC18620], the values are infection score, replicate 1 = 1.02; infection score, replicate 2 = 2.3; cell count, replicate 1 = 6548; cell count, replicate 2 = 6730.
CG12056 [DRSC17796] gave infection score, replicate 1 = 4.98; infection score, replicate 2 = 2.7; cell count, replicate 1 = 6784; cell count, replicate 2 = 6678.
Depletion of Wdr92 [DRSC10187] gave: infection score, replicate 1 = 5.38; infection score, replicate 2 = 6.16; cell count, replicate 1 = 6564; cell count, replicate 2 = 6327.
Against CG5641 [DRSC15852], the entry reads infection score, replicate 1 = 4.55; infection score, replicate 2 = 3.98; cell count, replicate 1 = 6794; cell count, replicate 2 = 6252.
For Eig71Ee [DRSC11152] the deposit lists infection score, replicate 1 = 0.32; infection score, replicate 2 = 0.98; cell count, replicate 1 = 6013; cell count, replicate 2 = 6133.
CG3557 [DRSC00614] scored infection score, replicate 1 = 4.32; infection score, replicate 2 = 4.49; cell count, replicate 1 = 6252; cell count, replicate 2 = 6127.
After knock-down of CG10063 [DRSC09688] the results were infection score, replicate 1 = 3.26; infection score, replicate 2 = 4.06; cell count, replicate 1 = 6137; cell count, replicate 2 = 5395.
Against CG10063 [DRSC28872], the entry reads infection score, replicate 1 = 12.1; infection score, replicate 2 = 2.91; cell count, replicate 1 = 3820; cell count, replicate 2 = 1824.

Laid out differently: entries from further up
{"Target gene":"CG5002","DRSC id":"DRSC06911","infection score, replicate 1":14.4,"infection score, replicate 2":11.1,"cell count, replicate 1":5105,"cell count, replicate 2":5304}
{"Target gene":"NT1","DRSC id":"DRSC08530","infection score, replicate 1":2.58,"infection score, replicate 2":1.35,"cell count, replicate 1":6058,"cell count, replicate 2":6021}
